Literature values in publication PMC6359284, “Identification, Characterization, and Optimization of Integrin αvβ6-Targeting Peptides from a One-Bead One-Compound (OBOC) Library: Towards the Development of Positron Emission Tomography (PET) Imaging Agents” (Molecules, 2019).

Details: matrix not stated, cited from earlier work

| Substance | % intact | % intact at 1 h (1 h) |
| --- | --- | --- |
| [^18F]FB-A20FMDV2 | 0% | – |
| [^18F]FB-A20FMDV2-PEG28 | – | 76% |
